{
  "source": "patent US11331327B2",
  "about": "“Antibacterial use of halogenated salicylanilides” (UNION therapeutics A/S, priority 2014, dated 2022)",
  "test_system": "S. aureus",
  "experiment": "Therapeutic index (LD50 rats / MIC100 S. aureus)",
  "parameters": "species or system Staphylococcus aureus",
  "conditions": "LD50 rats p.o. / MIC100 S. aureus",
  "data": [
    {"smiles": "Cc1cc(C(C#N)c2ccc(Cl)cc2)c(Cl)cc1NC(=O)c1cc(I)cc(I)c1O", "note": "(stereo not drawn) [Closantel, N-[5-chloro-4-[(4-chlorophenyl)cyanomethyl]-2-methylphenyl]-2-hydroxy-3,5-diiodobenzamide]", "values": [
      {"measurement": "Ther. Index (LD50, rats/MIC100, S. aureus)", "result": "176,000"}
    ]},
    {"smiles": "O=C(Nc1ccc([N+](=O)[O-])cc1Cl)c1cc(Cl)ccc1O", "note": "[Niclosamide, 5-chloro-N-(2-chloro-4-nitrophenyl)-2-hydroxybenz-amide]", "values": [
      {"measurement": "Ther. Index (LD50, rats/MIC100, S. aureus)", "result": "12,500,000"}
    ]},
    {"smiles": "O=C(Nc1ccc(Oc2ccc(Cl)cc2)c(Cl)c1)c1cc(I)cc(I)c1O", "note": "[Rafoxanide, 3′-chloro-4′-(p-chlorophenoxy)-3,5-diiodosalicylanilide]", "values": [
      {"measurement": "Ther. Index (LD50, rats/MIC100, S. aureus)", "result": "1,875,000"}
    ]}
  ]
}
